PMC4982898, “Molecular Design, Structural Analysis and Antifungal Activity of Derivatives of Peptide CGA-N46” (Interdisciplinary Sciences, Computational Life Sciences, 2016)

Assay: Circular dichroism, secondary structure content (CDPro)
Type: physicochemical
Settings: peptide 0.25 mg mL^−1, 25 °C
[1] = H2O (20 mM phosphate buffer, pH 7.4)
[2] = SUV (PC:PG 3:1 small unilamellar lipid vesicles)

Substance: H-ALQGAKERAHQQ-OH [CGA-N12, NH2–ALQGAKERAHQQ–COOH]
- Random (%) (30 mM SDS): 1.18%
- α-Helix (%) (30 mM SDS): 87.91%
- β-Sheet (%) (30 mM SDS): 9.53%
- β-Turn (%) (30 mM SDS): 1.38%
- Random (%) [1]: 1.44%
- α-Helix (%) [1]: 88.36%
- β-Sheet (%) [1]: 8.64%
- β-Turn (%) [1]: 1.56%
- Random (%) [2]: 9.31%
- α-Helix (%) [2]: 43.21%
- β-Sheet (%) [2]: 32.09%
- β-Turn (%) [2]: 15.39%

Substance: H-ERILSILRHQNLLKE-OH [CGA-N15, NH2–ERILSILRHQNLLKE–COOH]
- Random (%) (30 mM SDS): 1.52%
- α-Helix (%) (30 mM SDS): 83.41%
- β-Sheet (%) (30 mM SDS): 11.25%
- β-Turn (%) (30 mM SDS): 3.82%
- Random (%) [1]: 2.77%
- α-Helix (%) [1]: 82.69%
- β-Sheet (%) [1]: 10.89%
- β-Turn (%) [1]: 3.65%
- Random (%) [2]: 14.04%
- α-Helix (%) [2]: 41.53%
- β-Sheet (%) [2]: 30.47%
- β-Turn (%) [2]: 13.96%

Substance: H-GAKERAHQ-OH [CGA-N8, NH2–GAKERAHQ–COOH]
- Random (%) (30 mM SDS): 3.45%
- α-Helix (%) (30 mM SDS): 84.89%
- β-Sheet (%) (30 mM SDS): 9.87%
- β-Turn (%) (30 mM SDS): 1.79%
- Random (%) [1]: 2.13%
- α-Helix (%) [1]: 87.79%
- β-Sheet (%) [1]: 8.56%
- β-Turn (%) [1]: 1.34%
- Random (%) [2]: 8.11%
- α-Helix (%) [2]: 43.76%
- β-Sheet (%) [2]: 34.27%
- β-Turn (%) [2]: 13.86%

Substance: H-LQDLALQGAKERAHQQ-OH [CGA-N16, NH2–LQDLALQGAKERAHQQ–COOH]
- Random (%) (30 mM SDS): 1.88%
- α-Helix (%) (30 mM SDS): 83.33%
- β-Sheet (%) (30 mM SDS): 11.43%
- β-Turn (%) (30 mM SDS): 3.36%
- Random (%) [1]: 1.94%
- α-Helix (%) [1]: 83.67%
- β-Sheet (%) [1]: 11.16%
- β-Turn (%) [1]: 3.23%
- Random (%) [2]: 10.83%
- α-Helix (%) [2]: 40.91%
- β-Sheet (%) [2]: 35.67%
- β-Turn (%) [2]: 12.59%
